Assay results from US5424426A, “Dithiolanylglycine-containing HIV protease inhibitors of the hydroxyethylene isostere type” (Bayer Aktiengesellschaft, priority 1992, dated 1995).

Tests used:
HIV [1] = assay: HIV infection in cell culture, syncytia formation in PBLs; assay type: cell-based; conditions: read-out: IC50 [PBL]; HIV-infected normal human blood lymphocytes (PBLs); 50% suppression of virus-induced syncytia
Description: (§1) The HIV test was carried out with slight modifications by the method of Pauwels et al. [cf. Journal of Virological Methods 20, (1988), 309-321].
Normal human blood lymphocytes (PBLs) were enriched on Ficoll-Hypaque and stimulated in RPMI 1640, 20% foetal calf serum containing phytohaemagglutinin (90 μg/ml) and interleukin-2 (40 U/ml). For infection with the infectious HIV, PBLs were pelleted and the cell pellet was then suspended in 1 ml of HIV virus adsorption solution and incubated for 1 hour at 37° C.
The virus adsorption solution was centrifuged and the infected cell pellet taken up in growth medium so that a concentration of 1×10^5 cells per ml was established. The cells infected in such a way were pipetted at 1×10^4 cells/well into the wells of 96-well microtitre plates.
The first vertical row of the microtitre plate contained only growth medium and cells which had not been infected, but otherwise had been treated exactly as described above (cell control). The second vertical row of the microtitre plate contained only HIV-infected cells (virus control) in growth medium. The other wells contained the compounds according to the invention in different concentrations, starting from the wells of the 3rd vertical row of the microtitre plate, from which the test substances were diluted 2^10 times in steps of two.
The test batches were incubated at 37° C. until in the untreated virus control the syncytia formation typical of HIV occurred (between day 3 and 6 after infection), which was then assessed by microscopy.
(§2) The IC50 values were determined as the concentrations of the […] at which 50% (about 10 syncytia) of the virus-induced syncytia were suppressed by the treatment with the compound according to the invention.

HIV protease (HIV-1) = HIV protease (HIV-1) (Human immunodeficiency virus type 1 group M subtype B, UniProt P04585); assay: HIV-specific protease enzyme test (RP-HPLC analysis of synthetic peptide cleavage); conditions: read-out: IC50 (RP-HPLC) HIV-1, purified HIV protease, synthetic Gag cleavage-site peptide
Description: The results of the examples listed below were determined by the HIV test system described in the following references [cf. Hansen, J., Billich, S., Schulze, T., Sukrow, S. and Molling, K. (1988), EMBO Journal, Vol. 7, No. 6, pp. 1785-1791]: purified HIV protease was incubated with synthetic peptide which imitates a cleavage site in the Gag precursor protein and represents an in vivo cleavage site of the HIV protease. The resulting cleavage products of the synthetic peptide were analysed by means of reverse phase high performance liquid chromatography (RP-HPLC). The IC50 values given relate to the substance concentration which causes a 50% strength inhibition of the protease activity under the above-mentioned test conditions.

HIV [2] = assay: HIV infection in cell culture, H-9 cells; assay type: cell-based; conditions: read-out: IC50 [H-9]; HIV-infected H-9 cells
Description: as §1, §2

| SMILES | IC50 (HIV [1]) | IC50 (HIV protease (HIV-1)) | IC50 (HIV [2]) |
| --- | --- | --- | --- |
| CC[C@H](C)[C@H](NC(=O)[C@H](C[C@H](O)[C@H](CC1CCCCC1)NC(=O)[C@@H](NC(=O)[C@H](Cc1ccccc1)CS(=O)(=O)C(C)(C)C)C1SCCS1)C(C)C)C(=O)NCc1ccccn1 | 5000 nM | 68 to 80 nM | – |
| CC[C@H](C)[C@H](NC(=O)[C@@H](C[C@H](O)[C@H](CC1CCCCC1)NC(=O)[C@@H](NC(=O)C1CCN(C(=O)c2ccccn2)CC1)C1SCCS1)C(C)C)C(=O)NCc1ccccn1 | 10000 nM | 21 to 80 nM | – |
| CC[C@H](C)[C@H](NC(=O)[C@@H](C[C@H](O)[C@H](CC1CCCCC1)NC(=O)[C@@H](NC(=O)[C@H](Cc1ccccc1)OC(=O)N(C)CCC(=O)N1CCOCC1)C1SCCS1)C(C)C)C(=O)NCc1ccccn1 | 400 nM | 1.9 to 9 nM | – |
| CC[C@H](C)[C@H](NC(=O)[C@@H](C[C@H](O)[C@H](CC1CCCCC1)NC(=O)[C@@H](NC(=O)c1ccc2ccccc2n1)C1SCCS1)C(C)C)C(=O)NCc1ccccn1 | 50 nM | 0.064 to 0.11 nM | 38 nM |
| CC[C@H](C)[C@H](NC(=O)[C@H](C[C@H](O)[C@H](CC1CCCCC1)NC(=O)[C@@H](NC(=O)C1CCN(C(=O)c2ccccn2)CC1)C1SCCS1)C(C)C)C(=O)NCc1ccccn1 | 10000 nM | 6.8 to 9 nM | – |
| CC[C@H](C)[C@H](NC(=O)[C@@H](C[C@H](O)[C@H](CC1CCCCC1)NC(=O)[C@@H](NC(=O)[C@H](Cc1ccccc1)CS(=O)(=O)C(C)(C)C)C1SCCS1)C(C)C)C(=O)NCc1ccccn1 | 1000 nM | 0.14 to 1 nM | – |
| CC[C@H](C)[C@H](NC(=O)[C@H](Cc1ccccc1)C[C@H](O)[C@H](CC1CCCCC1)NC(=O)[C@@H](NC(=O)c1ccc2ccccc2n1)C1SCCS1)C(=O)NCc1ccccn1 | < 400 nM | 16 to 80 nM | – |
| CC[C@H](C)[C@H](NC(=O)C(C[C@H](O)[C@H](CC1CCCCC1)NC(=O)[C@@H](NC(=O)c1cc2ccccc2[nH]1)C1SCCS1)C(C)C)C(=O)NCc1ccccn1 (stereo partly shown) | > 1000 nM | 0.13 to 1 nM | – |
| CC[C@H](C)[C@H](NC(=O)[C@@H](Cc1ccccc1)C[C@H](O)[C@H](CC1CCCCC1)NC(=O)[C@@H](NC(=O)c1ccc2ccccc2n1)C1SCCS1)C(=O)NCc1ccccn1 | < 400 nM | 8.7 to 9 nM | – |
| C=CCC(C[C@H](O)[C@H](CC1CCCCC1)NC(=O)[C@@H](NC(=O)c1ccc2ccccc2n1)C1SCCS1)C(=O)N[C@H](C(=O)NCc1ccccn1)[C@@H](C)CC (stereo partly shown) | < 80 nM | 23 to 80 nM | – |
| CC[C@H](C)[C@H](NC(=O)[C@H](C[C@H](O)[C@H](CC1CCCCC1)NC(=O)[C@@H](NC(=O)c1ccc2ccccc2n1)C1SCCS1)C(C)C)C(=O)NCc1ccccn1 | 5000 nM | – | – |
